Results of unrelated studies side by side (data: NIAID ChemDB).

Common to all: enzyme or target tests

Fold resistance has wild type as its base. Percent inhibition refers to the dose given; in toxicity tests it is the harm to the cells. ICn: concentration for n% inhibition. An empty or dashed field is not shown. Lines come from different laboratories, so protocols vary.

compound | dose | method | target | conditions | strain or isolate | changes | endpoint | species | result
O=C(O)CCP(=O)(O)O |  |  | DNA polymerase |  |  |  | IC50 | Herpes simplex virus 1 | >500 µM
Nc1nc(N)c2nc(CNc3ccc(C(=O)N[C@@H](CC(=O)O)C(=O)O)cc3)cnc2n1 |  |  | DHFR |  |  |  | IC50 | Pneumocystis carinii | 0.028 µM
CCCCC(=O)NC[C@H]1O[C@@H](n2cc(I)c(=O)[nH]c2=O)C[C@@H]1O |  |  | Thymidine kinase |  |  |  | IC50 | Herpes simplex virus 1 | 0.15 µM
O=C1/C(=C\c2ccc(Br)c(Br)c2)SC(=S)N1NS(=O)(=O)c1cccc(Cl)c1 |  |  | NS5B polymerase |  |  |  | IC50 | Hepatitis C virus | ≤30 µM
O=C(Nc1nnc(NCC2CCCCC2)s1)c1ccc(F)cc1F |  |  | Polymerase |  |  |  | IC50 | Human cytomegalovirus | >25 µM
CC(Br)(C(=O)O)P(=O)(O)O | 100 µM |  | DNA polymerase |  |  |  | inhibition | Herpes simplex virus 2 | 0%
CCc1nc(N)nc(N)c1-c1ccc(N(C)Cc2ccccc2)c(N)c1 |  |  | DHFR |  | RH |  | IC50 | Toxoplasma gondii | 0.015 µM
CC(CCC(C(=O)O)P(=O)(O)O)CC(C)(C)C |  |  | DNA polymerase |  |  |  | IC50 | Duck hepatitis B virus | >100 µM
CCCCCCCCCCc1cc2cn([C@H]3C[C@H](O)[C@@H](CO)O3)c(=O)nc2o1 |  |  | Thymidine kinase |  | TK+ |  | IC50 | Varicella zoster virus | >200 µM
CC(=O)OC1C=COC=C2C[C@@H]3C(=O)N4C5C(=COC=CC5OC(C)=O)C[C@H]4C(=O)N3C21 |  |  | RNA polymerase |  | TYPE A21 |  | IC50 | Coxsackie virus | 20 µg/mL
C[C@@H]1CCC2=C(CCCC2(C)C)[C@@]1(C)CC[C@H](CCCc1ccoc1)COS(=O)(=O)[O-] |  |  | Isocitrate lyase |  | ATCC 10231 |  | IC50 | Candida albicans | 16.9 µg/mL
O=C/C=C/c1ccccc1 |  |  | Chitin synthase 2 |  |  |  | Ki | Saccharomyces cerevisiae | 1610 µM
CC1(C)N=C(N)N=C(N)N1c1ccc(CCc2ccccc2)cc1 |  |  | DHFR |  | RH |  | IC50 | Toxoplasma gondii | 0.012 µM
O=Nc1c(O)[nH]c(=O)[nH]c1=O |  |  | Uracil phosphoribosyltransferase |  | RH |  | IC50 | Toxoplasma gondii | >2000 µM
N#Cc1ccc(/C=C2/SC(=S)N(N)C2=O)cc1 |  |  | NS5B polymerase |  |  |  | IC50 | Hepatitis C virus | ≤30 µM
CC(=O)N[C@@H](CC(C)C)C(=O)N[C@@H](CC(C)C)C(=O)N[C@H](C=O)CCCN=C(N)N | 1000 µM |  | Aminopeptidase |  |  |  | inhibition | Cryptosporidium parvum | 28%
CC(C)SCCC(C)C1CCC2C3=C(CCC21C)C1(C)CCC(O)CC1CC3 |  |  | C24-methyltransferase |  |  |  | IC50 | Candida albicans | 20 µM
Cc1cn([C@H]2C[C@H](O)[C@@H](CN)O2)c(=O)[nH]c1=O |  |  | Thymidine kinase |  |  |  | IC50 | Herpes simplex virus 1 | 1.4 µM
O=C(Nc1nnc(NCCNc2ccccc2)s1)c1cc2ccccc2s1 |  |  | Polymerase |  |  |  | IC50 | Human cytomegalovirus | >25 µM
CC(N)C12CC3CC(CC(C3)C1)C2 | 50 µg/mL | nucleotide incorporation | Virion transcriptase |  | A/PR/1/74 rimantadine-susceptible |  | inhibition | Influenza A virus | 19%
Nc1nc(N)c(-c2ccc(Cl)c(Cl)c2)c(/C=C/c2ccc3ccccc3c2)n1 |  |  | DHFR |  |  |  | IC50 | Pneumocystis carinii | 12.8 µM
O=C(O)C(Cl)(Br)P(=O)(O)O | 100 µM |  | DNA polymerase |  |  |  | inhibition | Herpes simplex virus 1 | 0%
CCCCCCCCCCCNc1nnc(NC(=O)c2ccc3c(c2)C(=O)OC3=O)s1 |  |  | Polymerase |  |  |  | IC50 | Human cytomegalovirus | <25 µM
O=c1cc[nH]cc1 |  |  | Uracil phosphoribosyltransferase |  | RH |  | IC50 | Toxoplasma gondii | >2000 µM
O=C(O)C(F)(F)P(=O)(O)O | 100 µM |  | DNA polymerase |  |  |  | inhibition | Herpes simplex virus 2 | 65%
NS(=O)(=O)c1c[nH]c(=O)[nH]c1=O |  |  | Uracil phosphoribosyltransferase |  | RH |  | IC50 | Toxoplasma gondii | >2000 µM
CC(=O)N[C@@H](CO)[C@@H](O)[C@H](O)[C@H](O)COP(=O)(O)O | 76 µM |  | Phosphoglucose isomerase |  |  |  | inhibition | Candida albicans | 50%
COc1ccc2ccccc2c1C=C1C(=O)OC(C)(C)OC1=O |  | ELISA | Histidine-rich protein 2 |  |  |  | IC50 | Plasmodium falciparum | 41.72 µM
CC(=O)OC1C=COC=C2C[C@@]34SC(=O)S[C@]5(CC6=COC=CC(OC(C)=O)C6N5C3=O)C(=O)N4C21 |  |  | RNA polymerase |  | TYPE A21 |  | IC50 | Coxsackie virus | 0.5 µg/mL
O=C1/C(=C\c2ccc(Cl)c(Cl)c2)SC(=S)N1NS(=O)(=O)c1ccccc1 |  |  | NS5B polymerase |  |  |  | IC50 | Hepatitis C virus | ≤30 µM
CCOCc1nc(N)nc(N)c1-c1ccc(Cl)c(Cl)c1 |  |  | DHFR |  | RH |  | IC50 | Toxoplasma gondii | 0.08 µM
O=C(O)C(F)(Br)P(=O)(O)O |  |  | DNA polymerase |  |  |  | IC50 | Herpes simplex virus 2 | 70 µM
CN(Cc1cnc2nc(N)nc(N)c2n1)c1ccc(C(=O)N[C@@H](CCC(=O)O)C(=O)O)cc1Br |  |  | DHFR |  | RH |  | IC50 | Toxoplasma gondii | 0.00095 µM
Cc1cccc(C)c1N1C(N)=NC(N)=NC1(C)C |  |  | DHFR |  |  |  | IC50 | Pneumocystis carinii | >20 µM
O=C1NC(=S)S/C1=C/c1ccc(-c2cccc(Cl)c2)o1 |  |  | NS5B polymerase |  |  |  | IC50 | Hepatitis C virus | ≤30 µM
COc1ccc2c(c1)CCc1nc(N)nc(N)c1-2 |  |  | DHFR |  |  |  | IC50 | Pneumocystis carinii | 6.2 µM
O=C1/C(=C\c2ccccc2)SC(=S)N1NS(=O)(=O)c1ccccc1 |  |  | NS5B polymerase |  |  |  | IC50 | Hepatitis C virus | ≤30 µM
[N-]=[N+]=NC[C@H]1O[C@@H](n2cc(I)c(=O)[nH]c2=O)C[C@@H]1O |  |  | Thymidine kinase |  |  |  | IC50 | Herpes simplex virus 1 | 0.28 µM
N#CCc1nc(N)nc(N)c1-c1ccc(Cl)cc1 |  |  | DHFR |  |  |  | IC50 | Pneumocystis carinii | 490 µM
NC(=O)c1ncn([C@@H]2O[C@H](COC(=O)c3ccc(S(=O)(=O)F)cc3)[C@@H](O)[C@H]2O)n1 | 300 µM |  | NTPase/helicase |  |  |  | inhibition | West Nile virus | 47%
O=C(Nc1nnc(NCc2ccc(F)cc2)s1)c1ccc(F)cc1F |  |  | Polymerase |  |  |  | IC50 | Human cytomegalovirus | >25 µM
CC(O)(P(=O)(O)O)P(=O)(O)O |  |  | DNA polymerase |  |  |  | IC50 | Herpes simplex virus 1 | >500 µM
N[C@@H]1CN(c2c(F)cc3c(=O)c(C(=O)O)cn([C@@H]4C[C@@H]4F)c3c2Cl)CC12CC2 |  |  | Gyrase (V90A mutant) |  |  |  | IC50 | Mycobacterium tuberculosis | 22.1 µg/mL
O=C(O)C(O)P(=O)(O)O |  |  | DNA polymerase |  |  |  | IC50 | Duck hepatitis B virus | >100 µM
CC(=O)NC[C@@H](C=O)NC(=O)[C@H](Cc1ccccc1)NC(=O)[C@H](CC(C)C)NC(=O)OCc1ccccc1 |  | FRET | Protease |  | TYPE 14 |  | Ki | Rhinovirus | 0.006 µM
CC1=CC[C@H]2C(C)(C)CCC[C@]2(C)[C@H]1C/C(OS(=O)(=O)[O-])=C(\C)CCC/C(C)=C/Cc1cc(O)ccc1O.[Na+] |  |  | Isocitrate lyase |  | ATCC 10231 |  | IC50 | Candida albicans | 53.5 µg/mL
CC(=O)OC1C=COC=C2C[C@@]3(SC(C)=O)C(=O)N4C5C(=COC=CC5OC(C)=O)C[C@@]4(SC(C)=O)C(=O)N3C21 |  |  | RNA polymerase |  | TYPE A21 |  | IC50 | Coxsackie virus | 0.09 µg/mL
Cc1cccc(C)c1OCC(=O)N[C@@H](Cc1ccccc1)[C@H](O)CN1CC[C@@H](Sc2ccncc2)C[C@H]1C(=O)NC(C)(C)C |  | fluorescence | Protease |  |  | PR-V32I | Ki | HIV | 0.000083 µM
CC(=O)OC1C=COC=C2C[C@H]3C(=O)N4C5C(=COC=CC5OC(C)=O)C[C@H]4C(=O)N3C21 |  |  | RNA polymerase |  | TYPE A21 |  | IC50 | Coxsackie virus | 30 µg/mL
CC[C@H](C)[C@@H](NC(=O)[C@@H](C[C@H](O)[C@H](CC(C)C)NC(=O)[C@H](Cc1cnc[nH]1)NC(=O)[C@H](Cc1ccccc1)NC(=O)[C@@H]1CCCN1C(=O)[C@@H](N)Cc1cnc[nH]1)C(C)C)C(=O)N[C@@H](Cc1cnc[nH]1)C(=O)O | 1000 µM | HPLC | Protease | pH 7.0 |  |  | inhibition | HIV-2 | 40%
CC(C)c1cc(C(C)C)c(C(=O)Nc2nnc(NCCc3c[nH]c4ccccc34)s2)c(C(C)C)c1 |  |  | Polymerase |  |  |  | IC50 | Human cytomegalovirus | >25 µM
CCCCCCCCCC(C(=O)O)P(=O)(O)O |  |  | DNA polymerase |  |  |  | IC50 | Duck hepatitis B virus | >100 µM
O=C1CCNC(=O)N1 | 2000 µM |  | Uracil phosphoribosyltransferase |  | RH |  | inhibition | Toxoplasma gondii | <5%
CC1(C)N=C(N)N=C(N)N1c1cccc(CC(=O)Nc2ccc(S(=O)(=O)F)cc2)c1.CCS(=O)(=O)O |  |  | DHFR |  | RH |  | IC50 | Toxoplasma gondii | 0.14 µM
CC(C)c1cc(C(C)C)c(C(=O)Nc2nnc(NCc3ccncc3)s2)c(C(C)C)c1 |  |  | Polymerase |  |  |  | IC50 | Human cytomegalovirus | >25 µM
Nc1cnccn1 |  |  | Uracil phosphoribosyltransferase |  | RH |  | IC50 | Toxoplasma gondii | >2000 µM
CC1(C)N=C(N)N=C(N)N1c1cccc(CC(=O)Nc2ccccc2)c1 |  |  | DHFR |  |  |  | IC50 | Pneumocystis carinii | 0.44 µM
COc1ccccc1C(=O)Nc1nnc(NCCC(c2ccccc2)c2ccccc2)s1 |  |  | Polymerase |  |  |  | IC50 | Human cytomegalovirus | >25 µM
N#CCc1nc(N)nc(N)c1-c1ccc(Cl)cc1 |  |  | DHFR |  | RH |  | IC50 | Toxoplasma gondii | >100 µM
CN(O)C(=O)CCC(c1ccccc1)P(=O)(O)O |  | absorbance | PfDXR |  |  |  | Ki | Plasmodium falciparum | 0.00042 µM
CC1(C)N=C(N)N=C(N)N1c1cccc(OCc2cccc(N)c2)c1 |  |  | DHFR |  | RH |  | IC50 | Toxoplasma gondii | 0.27 µM
CCCCCCCCc1cc2cn([C@H]3C[C@H](O)[C@@H](CO)O3)c(=O)nc2o1 |  |  | Thymidine kinase |  | TK+ |  | IC50 | Varicella zoster virus | 37 µM
CC(C)[C@H](NC(=O)c1ccc2ccccc2n1)C(=O)N[C@@H](Cc1ccccc1)[C@H](O)CN1CC[C@@H](SCc2cccnc2)C[C@H]1C(=O)NC(C)(C)C |  | fluorescence | Protease |  |  | PR-V32I | fold resistance | HIV | 22.9
CC(=O)N(O)CCCP(=O)(O)O |  | absorbance | PfDXR |  |  |  | Ki | Plasmodium falciparum | 0.0026 µM
CC(CCC[NH+](C)C)C1CC[C@@]2(C)C3=C(CCC12C)C1(C)CCC(O)C(C)(C)C1CC3 |  |  | C24-methyltransferase |  |  |  | IC50 | Candida albicans | 3 µM
CCOC(=O)P(=O)(O)O |  |  | DNA polymerase |  |  |  | IC50 | Herpes simplex virus 1 | >35 µM
N#CCCNc1nnc(NC(=O)c2c(Cl)cccc2Cl)s1 |  |  | Polymerase |  |  |  | IC50 | Human cytomegalovirus | <25 µM
CCCCCCCCCCCCc1cc2cn([C@H]3C[C@H](O)[C@@H](CO)O3)c(=O)nc2o1 |  |  | Thymidine kinase |  | TK+ |  | IC50 | Varicella zoster virus | >200 µM

Repeating the final 10 entries:

compound | dose | method | target | conditions | strain or isolate | changes | endpoint | species | result
N#CCc1nc(N)nc(N)c1-c1ccc(Cl)cc1 |  |  | DHFR |  | RH |  | IC50 | Toxoplasma gondii | >100 µM
CN(O)C(=O)CCC(c1ccccc1)P(=O)(O)O |  | absorbance | PfDXR |  |  |  | Ki | Plasmodium falciparum | 0.00042 µM
CC1(C)N=C(N)N=C(N)N1c1cccc(OCc2cccc(N)c2)c1 |  |  | DHFR |  | RH |  | IC50 | Toxoplasma gondii | 0.27 µM
CCCCCCCCc1cc2cn([C@H]3C[C@H](O)[C@@H](CO)O3)c(=O)nc2o1 |  |  | Thymidine kinase |  | TK+ |  | IC50 | Varicella zoster virus | 37 µM
CC(C)[C@H](NC(=O)c1ccc2ccccc2n1)C(=O)N[C@@H](Cc1ccccc1)[C@H](O)CN1CC[C@@H](SCc2cccnc2)C[C@H]1C(=O)NC(C)(C)C |  | fluorescence | Protease |  |  | PR-V32I | fold resistance | HIV | 22.9
CC(=O)N(O)CCCP(=O)(O)O |  | absorbance | PfDXR |  |  |  | Ki | Plasmodium falciparum | 0.0026 µM
CC(CCC[NH+](C)C)C1CC[C@@]2(C)C3=C(CCC12C)C1(C)CCC(O)C(C)(C)C1CC3 |  |  | C24-methyltransferase |  |  |  | IC50 | Candida albicans | 3 µM
CCOC(=O)P(=O)(O)O |  |  | DNA polymerase |  |  |  | IC50 | Herpes simplex virus 1 | >35 µM
N#CCCNc1nnc(NC(=O)c2c(Cl)cccc2Cl)s1 |  |  | Polymerase |  |  |  | IC50 | Human cytomegalovirus | <25 µM
CCCCCCCCCCCCc1cc2cn([C@H]3C[C@H](O)[C@@H](CO)O3)c(=O)nc2o1 |  |  | Thymidine kinase |  | TK+ |  | IC50 | Varicella zoster virus | >200 µM